Compound potency records, mixed from different reports. Data source: NIAID ChemDB in PubChem.

All rows: tests in culture

a–b is a range or a potency band.

compound,organism,strain or isolate,cells,measure,tested at,result
CCCCCCCCCCCCNc1nc(=O)c2ncn([C@@H]3O[C@H](CO)[C@@H](O)[C@H]3O)c2c(=O)[nH]1,Japanese encephalitis virus,-,HepG2.2.15,EC50,-,10 µM
COc1c(C)c2c(c(O)c1C/C=C(\C)CCC(=O)O)C(=O)OC2,Monkeypox virus,-,3T3,EC50,-,0.2 µM
CSc1nsc(-c2ccccc2)c1C#N,Poliovirus,Brunhilde (type 1),HEP-2,EC50,-,0.045 µg/mL
Nc1nc(=O)n2ccn([C@@H]3O[C@H](CO)[C@@H](O)[C@H]3O)c2n1,Yellow fever virus,-,VERO,EC50,-,10 µg/mL
NC(=O)c1c[se]c([C@@H]2O[C@H](CO)[C@@H](O)[C@H]2O)n1,Rift valley fever virus,Zagazig 501,VERO,EC50,-,2.8 µg/mL
CCCCCCCCN1[C@H](CN)[C@@H](O)[C@H](O)[C@H]1CO,Japanese encephalitis virus,-,-,EC50,-,>10 µM
Nc1nccc2c1ncn2[C@@H]1C[C@H](CO)[C@@H](O)[C@H]1O,Junin virus,XJCL3,VERO,EC50,-,1.2 µg/mL
CO[C@H]1O[C@H](CO)[C@@H](O)[C@@H](O)[C@@H]1n1cnc(C(C)=O)n1,Yellow fever virus,-,-,EC50,-,>64 µg/mL
NC(=O)N=NC(N)=O,Junin virus,-,VERO,EC50,-,>100 µM
Nc1ncnc2c1ncn2[C@H]1C[C@H](F)[C@@H](CO)O1,Venezuelan equine encephalitis virus,-,VERO,EC50,-,5.3 µM
OC(Cn1ccnc1)C12CC3CC(CC(C3)C1)C2,Influenza A virus,H2N2 A/Singapore/1/57,MDCK,inhibition,1 µg/mL,100%
Nc1nccc2c1ncn2[C@@]12OCOC1[C@H](O)[C@@H](CO)O2,Junin virus,XJCL3,VERO,EC50,-,1.1 µg/mL
COc1c(C)c2c(c(O)c1C/C=C(\C)CCC(=O)O)C(=O)OC2,Monkeypox virus,Zaire strain wild-type,VERO 76,EC50,-,2.5 µM
N=C(N)c1ncn([C@@H]2O[C@H](CO)[C@@H](O)[C@H]2O)n1,Influenza A virus,H5N1 A/gull/PA/4175/83,MDCK,EC50,-,18 µg/mL
Nc1ncnc2c1ncn2[C@@H]1C=C(CO)[C@@H](O)[C@H]1O,Poliovirus,TYPE 1,-,MIC,-,>10 µg/mL
CCCCCCCCCCCCCCCCOCCCOP(=O)(O)CO[C@H](CO)Cn1ccc(N)nc1=O,Vaccinia virus,NYC,HFF,EC50,-,0.4 µM
N#Cc1c(N2CCOCC2)nsc1-c1ccccc1,Poliovirus,Brunhilde (type 1),HEP-2,EC50,-,>1 µg/mL
CC1C2CC3CC(C2)CC1C3,Influenza A virus,H2N2 A/Singapore/1/57,MDCK,inhibition,0.5 µg/mL,100%
NC(=O)c1[nH]nc([C@@H]2O[C@H](CO)[C@@H](O)[C@H]2O)c1O,Junin virus,XJCL3,VERO,EC50,-,2 µg/mL
COC(=O)c1c(SC)nsc1-c1ccccc1,Poliovirus,Brunhilde (type 1),HEP-2,EC50,-,0.09 µg/mL
COc1cc(NC(=O)Nc2cccc(CNC(=O)O[C@H]3CCOC3)c2)ccc1-c1cnco1,Venezuelan equine encephalitis virus,-,VERO,EC50,-,19.2 µM
CO[C@@H]1[C@H](OP(O)(=S)OC[C@H]2O[C@@H](n3cnc4c(N)ncnc43)C[C@@H]2O)[C@@H](CO)O[C@H]1n1ccc(=O)[nH]c1=O,Yellow fever virus,-,-,EC50,-,>50 µM
CCCCCCCCCCCCCCCCCCOCCOP1(=O)CO[C@@H](Cn2ccc(N)nc2=O)CO1,Vaccinia virus,Copenhagen,HFF,EC50,-,1.1 µM
Nc1nc(=O)c2[nH]cnc2c(=O)[nH]1,Japanese encephalitis virus,-,HepG2.2.15,EC50,-,>500 µM
CCCCCCCCCCCCCCCCOCCCOP1(=O)CO[C@@H](Cn2ccc(N)nc2=O)CO1,Vaccinia virus,NYC,HFF,EC50,-,0.1 µM
NC(=O)c1ncn([C@H]2C=C[C@@H](CO)O2)n1,Rift valley fever virus,-,-,EC50,-,61 µg/mL
NC(=O)c1ncn([C@@H]2O[C@H](CO)[C@@H](O)[C@H]2O)n1,Monkeypox virus,Zaire strain wild-type,VERO 76,EC50,-,96 µM
NC(=O)c1csc([C@@H]2O[C@H](CO)[C@@H](O)[C@H]2O)n1,Japanese encephalitis virus,Nakayama,VERO 76,EC50,-,73 µg/mL
NCCC12CC3CC(CC(C3)C1)C2,Influenza A virus,H2N2 A/Singapore/1/57,MDCK,inhibition,0.2 µg/mL,100%
CC1(C)[C@@H](O[C@H]2O[C@H](C(=O)O)[C@@H](O)[C@H](O)[C@H]2O[C@@H]2O[C@H](C(=O)O)[C@@H](O)[C@H](O)[C@H]2O)CC[C@]2(C)[C@H]3C(=O)C=C4[C@@H]5C[C@@](C)(C(=O)O)CC[C@]5(C)CC[C@@]4(C)[C@]3(C)CC[C@@H]12,Yellow fever virus,FNV,VERO,EC90,-,429 µg/mL
CC1=CC2O[C@H]3C[C@H]4OC(=O)/C=C\C=C\[C@H](C(C)O)OCC/C(C)=C/C(=O)OCC2(CC1)[C@@]4(C)[C@]31CO1,Junin virus,-,VERO,EC50,-,0.0031 µg/mL
CC1C2CCCC([C@@H]2N)[C@]2(O)CCCCC12,Influenza A virus,H2N2 A/Singapore/1/57,MDCK,inhibition,4 µg/mL,100%
CO[C@H]1O[C@H](CO)[C@@H](O)[C@@H](OC)[C@@H]1n1cnc(C(C)=O)n1,Yellow fever virus,-,-,EC50,-,>64 µg/mL
Nc1ncnc2c1ncn2CCOCP(=O)(O)O,Vaccinia virus,-,-,MIC,-,>100 µg/mL
Nc1ccn([C@@H]2C=C(CO)[C@@H](O)[C@@H]2O)c(=O)n1,Junin virus,XJCL3,VERO,EC50,-,0.03 µg/mL
CCOC(=O)CSc1nsc(-c2ccccc2)c1C#N,Poliovirus,Brunhilde (type 1),HEP-2,EC50,-,>200 µg/mL
Nc1ncnc2c1ncn2[C@H]1[C@H](O)[C@H](O)[C@]2(CO)O[C@H]12,Junin virus,XJCL3,VERO,EC50,-,>1 µg/mL
CCCCCCCCCCCCCCNc1nc(=O)c2ncn([C@@H]3O[C@H](CO)[C@@H](O)[C@H]3O)c2c(=O)[nH]1,Japanese encephalitis virus,-,HepG2.2.15,EC50,-,10–15 µM
NC(=O)c1ncn(C2OC(CO)C3OC32)n1,Rift valley fever virus,-,-,EC50,-,149 µg/mL
Nc1nccc2c1ncn2[C@@H]1C[C@H](CO)[C@@H](O)[C@H]1O,Monkeypox virus,Zaire strain wild-type,VERO 76,EC50,-,4.5 µM
NC(=O)c1nc(F)c[nH]c1=O,Influenza A virus,H2N2 Takathuki/4/65,MDCK,EC50,-,0.048 µg/mL
C[C@H]1C[C@@H](n2cnc3c(N)ncnc32)[C@H](O)[C@@H]1O,Junin virus,-,VERO,EC50,-,10 µg/mL
Nc1ccn(C[C@@H](CO)OCP(=O)(O)O)c(=O)n1,Cowpox virus,-,3T3,EC50,-,3.2 µM
NCCC12CC3CC(CC(N)(C3)C1)C2,Influenza A virus,H2N2 A/Singapore/1/57,MDCK,inhibition,1 µg/mL,100%
CCCCCCCCCCCCCCCCCCOCCOP(=O)(O)CO[C@H](CO)Cn1ccc(N)nc1=O,Cowpox virus,Brighton,HFF,EC50,-,0.3 µM
CCCCCCCCCCCCNc1nc(=O)c2ncn([C@@H]3C[C@H](O)[C@@H](CO)O3)c2c(=O)[nH]1,Japanese encephalitis virus,-,HepG2.2.15,EC50,-,300 µM
O=Nc1ccc2ccccc2c1N=Nc1ccccc1C(=O)O,Junin virus,-,VERO,EC50,-,6.5 µM
CCCCCCCCCCCCNc1nc(=O)c2ncn([C@H]3C[C@H](O)[C@@H](CO)O3)c2c(=O)[nH]1,Japanese encephalitis virus,-,HepG2.2.15,EC50,-,5–10 µM
CCNC12CC3CC(C)(CC(C)(C3)C1)C2,Influenza A virus,H2N2 A/Singapore/1/57,MDCK,inhibition,10 µg/mL,100%
Nc1ccn(C[C@H]2COP(=O)(O)CO2)c(=O)n1,Vaccinia virus,NYC,HFF,EC50,-,10.3 µM
Nc1ccn(C[C@@H](CO)OCP(=O)(O)O)c(=O)n1,Monkeypox virus,-,VERO,EC50,-,78 µM
Nc1ccn([C@@H]2CS[C@H](CO)O2)c(=O)n1,Vaccinia virus,-,HFF,EC50,-,>436 µM
CC1=CC2O[C@H]3C[C@H]4OC(=O)/C=C\C=C\C(=O)OCC/C(C)=C/C(=O)OCC2(CC1)[C@@]4(C)[C@]31CO1,Junin virus,-,VERO,EC50,-,0.0012 µg/mL

A second listing of 4 rows from above:

compound	organism	strain or isolate	cells	measure	tested at	result
NC(=O)c1[nH]nc([C@@H]2O[C@H](CO)[C@@H](O)[C@H]2O)c1O	Junin virus	XJCL3	VERO	EC50	-	2 µg/mL
CCNC12CC3CC(C)(CC(C)(C3)C1)C2	Influenza A virus	H2N2 A/Singapore/1/57	MDCK	inhibition	10 µg/mL	100%
Nc1ncnc2c1ncn2CCOCP(=O)(O)O	Vaccinia virus	-	-	MIC	-	>100 µg/mL
Nc1nc(=O)n2ccn([C@@H]3O[C@H](CO)[C@@H](O)[C@H]3O)c2n1	Yellow fever virus	-	VERO	EC50	-	10 µg/mL

ECn is the concentration giving n% inhibition of infection, replication or growth. Lines come from different laboratories, so protocols vary. Blank or dashed fields: not listed here. Inhibition is in % at the dose shown (toxicity tests: loss of growth or viability).